Experimental data: PubChem BioAssay AID1259414 (Drosophila RNAi Screening Center, 2018)

Aim: 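Genome-wide screen for host control of endosymbiont load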 (primary screen)
Cells: Drosophila JW18 cells infected with Wolbachia
Reagents: long dsRNA against Drosophila genes, 0.25 µg dsRNA per well of a 384-well plate
Timing: 5 days
Treatment: cells persistently infected with Wolbachia before knock-down; no added drug
Measured: 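Imaged fluorescence in situ signal for Wolbachia 23S rRNA per DAPI-counted host cell, given as a robust z-score within each plate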
Reading the numbers: Wolbachia per cell robust z: higher = more Wolbachia per host cell than the plate typical
Active means: 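Active if absolute robust z reaches 1.5 in two or more of three replicates, leaving out multi- or no-target dsRNAs, genes unexpressed in JW18 and A1 wells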
The screen tested about 24,000 reagents; this is an unselected part of those with a known target gene and a result. Over the whole deposit, about 1,210 (5%) are marked active. 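Inactive calls also include excluded dsRNAs with several or no targets, genes unexpressed in JW18, and well A1, regardless of score.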 A number with no mark means an inactive call. Reagents against one gene are numbered here. Names joined by + are all predicted targets of the reagent.

| target | dsRNA no. | Wolbachia per cell robust z, rep 1 | Wolbachia per cell robust z, rep 2 | Wolbachia per cell robust z, rep 3 |
| --- | --- | --- | --- | --- |
| CG13409 (GeneID 42592) | 1 | 1.2 | 0.41 | 0.943 |
| CheA75a (GeneID 40011) | 1 | -0.211 | 1.15 | -0.294 |
| Spn55B (GeneID 49803) | 1 | -2.51 (active) | -4.32 | -2.6 |
| Spn55B (GeneID 49803) | 2 | -0.191 | -0.652 | -0.151 |
| Spn55B (GeneID 49803) | 3 | 0.781 | 1.02 | 0.888 |
| CG14634 (GeneID 50366) | 1 | 0.139 | 0.155 | 0.297 |
| tth (GeneID 32318) | 1 | 0.289 | 0.478 | -1.46 |
| tth (GeneID 32318) | 2 | -0.243 | -0.237 | 0.249 |
| PEK (GeneID 40653) | 1 | 0.147 | 1.58 | -0.505 |
| CG3091 (GeneID 31210) | 1 | -0.867 | 1.42 | 1.3 |
| Pkn + Tsen15 | 1 | 0.508 | -0.202 | 0.129 |
| Pkn + Tsen15 | 2 | 1.15 | 0.2 | -0.037 |
| CG31278 (GeneID 41282) | 1 | -4.11 (active) | -0.431 | -3.84 |
| RluA-2 (GeneID 34440) | 1 | 0.449 | 0.232 | 0.996 |
| Dhit (GeneID 37037) | 1 | -0.214 | -0.674 | -1.78 |
| Dhit (GeneID 37037) | 2 | -0.391 | -0.289 | 0.843 |
| CG9776 (GeneID 40546) | 1 | 0.0709 | -0.0696 | -1.07 |
| CG33688 (GeneID 3772065) | 1 | 0.908 | -0.224 | 0.727 |
| Fatp1 (GeneID 26067068) | 1 | 0.172 | 0.138 | -2.46 |
| ppk20 (GeneID 43486) | 1 | 0.199 | -4.43 | -0.186 |
| ppk20 (GeneID 43486) | 2 | 0.776 | 1.92 | 0.204 |
| CG12929 (GeneID 35987) | 1 | -0.21 | -0.0507 | -0.805 |
| CG9864 (GeneID 37287) | 1 | -1.04 | 0.646 | -0.0434 |
| CG9864 (GeneID 37287) | 2 | -0.15 | 0.331 | 0.246 |
| exp (GeneID 36276) | 1 | 0.48 | 1.2 | 0.636 |
| exp (GeneID 36276) | 2 | -1.95 (active) | -1.26 | -2.92 |
| CG17193 (GeneID 50044) | 1 | 0.0926 | 0.443 | 0.665 |
| CG34198 (GeneID 5740481) | 1 | 0.0669 | -1.65 | 1.65 |
| CG10177 (GeneID 42772) | 1 | 0.503 | -0.284 | 1.56 |
| CG10177 (GeneID 42772) | 2 | -0.194 | 1.7 | -0.646 |
| CG10177 (GeneID 42772) | 3 | 0.439 | 0.621 | -1.47 |

Reagents listed above marked active, once more:
| target | dsRNA no. | Wolbachia per cell robust z, rep 1 | Wolbachia per cell robust z, rep 2 | Wolbachia per cell robust z, rep 3 |
| --- | --- | --- | --- | --- |
| Spn55B (GeneID 49803) | 1 | -2.51 (active) | -4.32 | -2.6 |
| CG31278 (GeneID 41282) | 1 | -4.11 (active) | -0.431 | -3.84 |
| exp (GeneID 36276) | 2 | -1.95 (active) | -1.26 | -2.92 |

The results go on.
| target | dsRNA no. | Wolbachia per cell robust z, rep 1 | Wolbachia per cell robust z, rep 2 | Wolbachia per cell robust z, rep 3 |
| --- | --- | --- | --- | --- |
| Ir56c (GeneID 37251) | 1 | 0.125 | 0.305 | -0.188 |
| Ir56c (GeneID 37251) | 2 | -0.386 | 0.292 | 0.16 |
| Usp16-45 (GeneID 31458) | 1 | -0.00315 | -1.8 | 0.0589 |
| Usp16-45 (GeneID 31458) | 2 | 0.301 | -0.204 | 0.273 |
| CG14187 (GeneID 40199) | 1 | 0.00788 | -1.66 | -1.2 |
| CG14187 (GeneID 40199) | 2 | 0.158 | -0.193 | -0.377 |
| CG11619 (GeneID 40072) | 1 | -0.805 | -0.503 | 1.52 |
| dgrn (GeneID 40725) | 1 | 0.56 | 0.641 | 0.258 |
| CG14258 (GeneID 43260) | 1 | 0.754 | -3.22 | 0.851 |
| PGRP-SB2 (GeneID 39869) | 1 | -0.179 | -1.26 | 0.618 |
| Hsp83 (GeneID 38389) | 1 | -2.7 | 0.252 | 0.228 |
| Hsp83 (GeneID 38389) | 2 | -0.0015 | 1.44 | 1.44 |
| beta4GalNAcTA (GeneID 36585) | 1 | 0.693 | 0.814 | 0.63 |
| CG14062 (GeneID 43389) | 1 | 1.1 | 1.07 | -1.46 |
| CG14062 (GeneID 43389) | 2 | 0.302 | 0.406 | 1.13 |
| Myb (GeneID 32543) | 1 | -0.701 (active) | 2.04 | 3.64 |
| inaF-D + inaF-B + inaF-A + 1 more | 1 | 0.498 | -1.28 | -0.52 |
| CG10962 (GeneID 31824) | 1 | 1.57 | -0.0945 | -0.3 |
| CG10962 (GeneID 31824) | 2 | -0.449 | -6.03 | -7.8 |
| nwk (GeneID 39052) | 1 | 0.526 | -8.03 | 0.0377 |
| nwk (GeneID 39052) | 2 | -2.83 | -0.0127 | -0.354 |
| nwk (GeneID 39052) | 3 | -2.22 | -0.176 | -7.31 |
| CG18538 (GeneID 37095) | 1 | -1.22 | -5.06 | 0.544 |
| CG7236 (GeneID 33798) | 1 | 2.53 | 1.57 | 2.33 |
| CG7236 (GeneID 33798) | 2 | -0.815 | 1.19 | -0.551 |
| CG7236 (GeneID 33798) | 3 | -1.87 | -1.41 | -0.0332 |
| fs(1)K10 (GeneID 47781) | 1 | 1.08 | -0.0565 | 0.641 |
| fs(1)K10 (GeneID 47781) | 2 | 0.529 | 1.17 | -0.733 |
| Hml (GeneID 39529) | 1 | -0.692 | -0.651 | 0.417 |
| corolla (GeneID 32739) | 1 | -1.38 | 0.136 | -0.338 |
| CG33476 (GeneID 2768727) | 1 | -1.26 | -1.29 | -0.412 |
| Kdsr (GeneID 43043) | 1 | -1.06 | 0.443 | -1.42 |
| CG2816 (GeneID 33595) | 1 | -4.57 | 0.354 | -0.175 |
| CG2816 (GeneID 33595) | 2 | 0.159 | -0.00773 | 0.191 |
| CG17549 (GeneID 35212) | 1 | -0.666 | 0.706 | -0.0446 |
| l(3)72Dn (GeneID 39774) | 1 | 0.459 | -0.39 | -0.982 |
| CG8668 (GeneID 34107) | 1 | -0.834 | 0.994 | 0.451 |
| CG8668 (GeneID 34107) | 2 | 0.761 | -0.175 | 1.25 |
| CG11664 (GeneID 31033) | 1 | 0.168 | -2.66 | 1.11 |
| CG7882 (GeneID 35520) | 1 | -0.539 | -1.31 | -0.326 |
| Menl-2 + Menl-1 | 1 | -3.03 | -3.46 | -1.04 |
| Menl-2 + Menl-1 | 2 | -0.482 | 0.655 | -2.08 |
| HemK1 (GeneID 33902) | 1 | -5.99 | -0.0984 | -0.0267 |
| Glg1 (GeneID 40382) | 1 | -1.3 | -0.368 | -1.2 |
| Glg1 (GeneID 40382) | 2 | 0.351 | 0.327 | -0.895 |
| Glg1 (GeneID 40382) | 3 | -0.915 | -0.317 | -0.231 |
| CG15373 (GeneID 32784) | 1 | -1.49 | -0.881 | -0.761 |
| CR33255 + CR42838 + hpRNA:CR32205 | 1 | 0.36 | 0.442 | 0.0424 |
| bai (GeneID 42996) | 1 | 1.49 | -0.0467 | 1.23 |
| CG14731 (GeneID 41442) | 1 | 0.21 | 0.966 | -4.88 |
| CG33228 (GeneID 2768732) | 1 | 1.06 | 0.0298 | 0.217 |
| sc (GeneID 30982) | 1 | 0.148 | 0.14 | 1.14 |
| sc (GeneID 30982) | 2 | 0.986 | 0.663 | -1.11 |
| phr (GeneID 35735) | 1 | 0.718 | 0.586 | -0.254 |
| Ctu2 (GeneID 35234) | 1 | -0.762 | -0.23 | -0.567 |
| Ctu2 (GeneID 35234) | 2 | -0.905 | 0.432 | 0.000697 |
